Measured data: PubChem BioAssay AID1259414 (Drosophila RNAi Screening Center, 2018)
Test: 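Fly genes that alter Wolbachia amount inside host cells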 (primary screen). System: Drosophila JW18 cells infected with Wolbachia. Reagent: long dsRNA against Drosophila genes, 0.25 µg dsRNA per well of a 384-well plate. Duration: 5 days. Conditions: cells persistently infected with Wolbachia before knock-down; no added drug. Detection: 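Automated imaging of bacterial rRNA staining divided by host cell count, reported as plate-normalised robust z-score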. Reading the numbers: Wolbachia per cell robust z: higher = more Wolbachia per host cell than the plate typical. Rule for the call: 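Hit when robust z is 1.5 or more, or -1.5 or less, in at least two of three replicates; excludes dsRNAs with several or no targets, genes not expressed in JW18 and well A1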.
In all, the deposit lists about 24,000 reagents; shown is an unselected part of those with a known target gene and a result. In the full data, about 1,210 (5%) got an active call. 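Inactive calls also include excluded dsRNAs with several or no targets, genes unexpressed in JW18, and well A1, regardless of score.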

CtsL3 [DRSC12171] | Wolbachia per cell robust z, rep 1 = -2.51; Wolbachia per cell robust z, rep 2 = -0.597; Wolbachia per cell robust z, rep 3 = 0.0578; call = inactive
CtsL3 [DRSC27036] | Wolbachia per cell robust z, rep 1 = -6.28; Wolbachia per cell robust z, rep 2 = -0.901; Wolbachia per cell robust z, rep 3 = -0.461; call = inactive
CG14402 [DRSC02386] | Wolbachia per cell robust z, rep 1 = 0.346; Wolbachia per cell robust z, rep 2 = -1.16; Wolbachia per cell robust z, rep 3 = -0.0642; call = inactive
pxb [DRSC13110] | Wolbachia per cell robust z, rep 1 = 0.234; Wolbachia per cell robust z, rep 2 = -3.08; Wolbachia per cell robust z, rep 3 = 0.616; call = inactive
pxb [DRSC14996] | Wolbachia per cell robust z, rep 1 = 0.208; Wolbachia per cell robust z, rep 2 = 0.215; Wolbachia per cell robust z, rep 3 = -0.13; call = inactive
pxb [DRSC14997] | Wolbachia per cell robust z, rep 1 = -1.3; Wolbachia per cell robust z, rep 2 = -0.131; Wolbachia per cell robust z, rep 3 = -0.0427; call = inactive
pxb [DRSC22225] | Wolbachia per cell robust z, rep 1 = 0.649; Wolbachia per cell robust z, rep 2 = -0.752; Wolbachia per cell robust z, rep 3 = 0.49; call = inactive
pxb [DRSC25214] | Wolbachia per cell robust z, rep 1 = 0.13; Wolbachia per cell robust z, rep 2 = -0.0485; Wolbachia per cell robust z, rep 3 = 0.38; call = inactive
CG8850 [DRSC07287] | Wolbachia per cell robust z, rep 1 = -0.214; Wolbachia per cell robust z, rep 2 = -2.29; Wolbachia per cell robust z, rep 3 = -1.08; call = inactive
CG8850 [DRSC25965] | Wolbachia per cell robust z, rep 1 = 0.311; Wolbachia per cell robust z, rep 2 = -1.02; Wolbachia per cell robust z, rep 3 = 0.738; call = inactive
ninaC [DRSC03579] | Wolbachia per cell robust z, rep 1 = 0.404; Wolbachia per cell robust z, rep 2 = -0.62; Wolbachia per cell robust z, rep 3 = 0.418; call = inactive
ninaC [DRSC29875] | Wolbachia per cell robust z, rep 1 = 0.778; Wolbachia per cell robust z, rep 2 = 1.18; Wolbachia per cell robust z, rep 3 = -3.74; call = inactive
CG8475 [DRSC03091] | Wolbachia per cell robust z, rep 1 = 1.17; Wolbachia per cell robust z, rep 2 = 0.838; Wolbachia per cell robust z, rep 3 = -0.896; call = inactive
CG33775 [DRSC38873] | Wolbachia per cell robust z, rep 1 = 0.199; Wolbachia per cell robust z, rep 2 = 0.364; Wolbachia per cell robust z, rep 3 = 0.228; call = inactive
AdipoR [DRSC15767] | Wolbachia per cell robust z, rep 1 = -0.025; Wolbachia per cell robust z, rep 2 = -0.866; Wolbachia per cell robust z, rep 3 = 0.301; call = inactive
CG31104 [DRSC14658] | Wolbachia per cell robust z, rep 1 = -0.646; Wolbachia per cell robust z, rep 2 = -0.0045; Wolbachia per cell robust z, rep 3 = -0.25; call = inactive
CG31104 [DRSC24390] | Wolbachia per cell robust z, rep 1 = -0.443; Wolbachia per cell robust z, rep 2 = -0.443; Wolbachia per cell robust z, rep 3 = -0.164; call = inactive
CG12782 [DRSC04127] | Wolbachia per cell robust z, rep 1 = -0.0016; Wolbachia per cell robust z, rep 2 = 0.114; Wolbachia per cell robust z, rep 3 = 0.023; call = inactive
CG13426 [DRSC06388] | Wolbachia per cell robust z, rep 1 = -1.2; Wolbachia per cell robust z, rep 2 = 0.109; Wolbachia per cell robust z, rep 3 = -2.54; call = inactive
CG1850 [DRSC06762] | Wolbachia per cell robust z, rep 1 = -1.21; Wolbachia per cell robust z, rep 2 = 0.321; Wolbachia per cell robust z, rep 3 = -1.25; call = inactive
yellow-b [DRSC03639] | Wolbachia per cell robust z, rep 1 = 0.0763; Wolbachia per cell robust z, rep 2 = -0.795; Wolbachia per cell robust z, rep 3 = 0.34; call = inactive
tws [DRSC12767] | Wolbachia per cell robust z, rep 1 = -0.361; Wolbachia per cell robust z, rep 2 = 0.784; Wolbachia per cell robust z, rep 3 = -2.38; call = inactive
tws [DRSC17092] | Wolbachia per cell robust z, rep 1 = 1.39; Wolbachia per cell robust z, rep 2 = -3.06; Wolbachia per cell robust z, rep 3 = 0.101; call = inactive
tws [DRSC27776] | Wolbachia per cell robust z, rep 1 = 0.697; Wolbachia per cell robust z, rep 2 = 1.29; Wolbachia per cell robust z, rep 3 = 0.443; call = inactive
nSyb [DRSC08727] | Wolbachia per cell robust z, rep 1 = -0.195; Wolbachia per cell robust z, rep 2 = -3.92; Wolbachia per cell robust z, rep 3 = 0.173; call = inactive
nSyb [DRSC22961] | Wolbachia per cell robust z, rep 1 = 0.237; Wolbachia per cell robust z, rep 2 = -0.163; Wolbachia per cell robust z, rep 3 = 0.272; call = inactive
nSyb [DRSC27077] | Wolbachia per cell robust z, rep 1 = -3.89; Wolbachia per cell robust z, rep 2 = 0.576; Wolbachia per cell robust z, rep 3 = 0.552; call = inactive
nSyb [DRSC29975] | Wolbachia per cell robust z, rep 1 = -0.0447; Wolbachia per cell robust z, rep 2 = -0.165; Wolbachia per cell robust z, rep 3 = 2.08; call = inactive
ms(3)76Cc [DRSC11071] | Wolbachia per cell robust z, rep 1 = -0.325; Wolbachia per cell robust z, rep 2 = -4.93; Wolbachia per cell robust z, rep 3 = 0.209; call = inactive
ms(3)76Cc [DRSC21630] | Wolbachia per cell robust z, rep 1 = -1.3; Wolbachia per cell robust z, rep 2 = -1.19; Wolbachia per cell robust z, rep 3 = 0.126; call = inactive

4 of these entries in another layout.
CG14402 [DRSC02386]
- Wolbachia per cell robust z, rep 1: 0.346
- Wolbachia per cell robust z, rep 2: -1.16
- Wolbachia per cell robust z, rep 3: -0.0642
- call: inactive

pxb [DRSC13110]
- Wolbachia per cell robust z, rep 1: 0.234
- Wolbachia per cell robust z, rep 2: -3.08
- Wolbachia per cell robust z, rep 3: 0.616
- call: inactive

pxb [DRSC14996]
- Wolbachia per cell robust z, rep 1: 0.208
- Wolbachia per cell robust z, rep 2: 0.215
- Wolbachia per cell robust z, rep 3: -0.13
- call: inactive

pxb [DRSC14997]
- Wolbachia per cell robust z, rep 1: -1.3
- Wolbachia per cell robust z, rep 2: -0.131
- Wolbachia per cell robust z, rep 3: -0.0427
- call: inactive
